## Mutational interference map of HIV-1 RNA dimerization

RNA: 5' end of the HIV-1 NL4-3 genome, made in vitro. Positions 1-437 read:
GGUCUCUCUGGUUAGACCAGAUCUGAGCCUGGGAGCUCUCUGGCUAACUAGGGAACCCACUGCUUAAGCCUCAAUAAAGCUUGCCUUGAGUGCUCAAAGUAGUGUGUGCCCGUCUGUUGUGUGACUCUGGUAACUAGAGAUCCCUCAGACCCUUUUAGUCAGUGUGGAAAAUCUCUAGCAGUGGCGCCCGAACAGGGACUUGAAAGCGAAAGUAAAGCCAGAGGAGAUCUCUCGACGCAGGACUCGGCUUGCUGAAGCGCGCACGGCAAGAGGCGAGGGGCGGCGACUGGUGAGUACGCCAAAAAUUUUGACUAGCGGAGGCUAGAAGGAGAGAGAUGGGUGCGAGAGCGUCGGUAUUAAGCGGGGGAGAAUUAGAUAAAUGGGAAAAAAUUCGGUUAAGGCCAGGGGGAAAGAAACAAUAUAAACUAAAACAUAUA

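Mutant RNA libraries with 1G, 2G or 3G starts, with or without cap, were folded at 37 °C for 30 min. High salt was 300 mM KCl and 5 mM MgCl2, low salt 40 mM KCl and 0.1 mM MgCl2; monomer and dimer were parted on a native gel. Mutation frequencies in the two bands give Kdimer.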

Values are log2 Kdimer, the median over the changes at each position: higher means that changes there hinder dimer formation, below 0 that they favour it. One numbering serves 1G, 2G and 3G. A position is written with its base where known. The source gives no letters past position 437.

| # | position | domain | 1G uncapped high-salt | 2G capped high-salt | 3G uncapped high-salt | 2G uncapped high-salt |
|---|---|---|---|---|---|---|
| 1 | A101 | PolyA | 0.73 | 0.43 | 0.57 | 0.57 |
| 2 | G33 | TAR | 0.07 | -0.01 | 0.01 | 0.08 |
| 3 | 513 | none | 0.03 | -0.01 | -0.02 | 0.04 |
| 4 | 465 | none | 0.09 | 0.12 | -0.14 | 0.02 |
| 5 | U118 | none | 0.19 | -0.05 | 0.08 | 0.05 |
| 6 | A276 | SL1 | 3.61 | 3.24 | 3.42 | 3.49 |
| 7 | A293 | SL2 | 0.07 | -0.13 | 0.07 | 0.00 |
| 8 | A177 | PBS | 0.17 | -0.11 | 0.16 | 0.24 |
| 9 | A359 | none | 0.16 | 0.10 | 0.09 | -0.02 |
| 10 | 508 | none | 0.11 | 0.09 | 0.09 | 0.15 |
| 11 | 464 | none | 0.08 | 0.36 | 0.07 | 0.07 |
| 12 | C58 | PolyA | 0.27 | 0.19 | 0.17 | 0.20 |
| 13 | 487 | none | 0.04 | 0.03 | -0.05 | 0.05 |
| 14 | G331 | none | 0.08 | 0.04 | 0.19 | 0.06 |
| 15 | A431 | none | 0.11 | 0.08 | 0.06 | 0.10 |
| 16 | A324 | SL3 | 0.55 | 0.42 | 0.43 | 0.89 |
| 17 | U155 | PBS | 0.07 | -0.03 | 0.03 | 0.09 |
| 18 | A89 | PolyA | 0.28 | 0.04 | 0.28 | 0.13 |
| 19 | A239 | none | -0.15 | -0.18 | -0.28 | -0.06 |
| 20 | 479 | none | 0.04 | -0.06 | -0.11 | -0.05 |
| 21 | C219 | antiPAS | 0.60 | 0.23 | 0.71 | 0.51 |
| 22 | U107 | U5 | 0.19 | 0.14 | 0.02 | -0.04 |
| 23 | A211 | PBS | -0.18 | -0.13 | -0.31 | -0.35 |
| 24 | C93 | PolyA | 0.30 | 0.09 | 0.27 | 0.24 |
| 25 | 445 | none | 0.12 | 0.55 | 0.09 | 0.03 |
| 26 | C72 | PolyA | 0.12 | -0.03 | 0.12 | 0.09 |
| 27 | G406 | none | -0.11 | -0.22 | -0.09 | -0.11 |
| 28 | A304 | none | 0.07 | -0.03 | 0.11 | 0.03 |
| 29 | C300 | none | -0.14 | -0.09 | -0.23 | 0.06 |
| 30 | U249 | SL1 | 1.72 | 1.18 | 1.56 | 1.55 |
| 31 | U392 | none | 0.12 | 0.08 | 0.04 | 0.12 |
| 32 | 486 | none | -0.02 | 0.01 | 0.01 | 0.01 |
| 33 | G318 | SL3 | -0.01 | 0.04 | 0.03 | 0.07 |
| 34 | U337 | AUG | 0.12 | 0.05 | 0.22 | 0.09 |
| 35 | 452 | none | -0.03 | -0.15 | -0.02 | 0.05 |
| 36 | U341 | AUG | 0.03 | -0.05 | 0.18 | 0.08 |
| 37 | C236 | none | 2.03 | 2.63 | 1.95 | 2.73 |
| 38 | 490 | none | 0.07 | 0.07 | -0.03 | -0.01 |

The last 5 entries again:

U337 (domain AUG): 1G uncapped high-salt 0.12; 2G capped high-salt 0.05; 3G uncapped high-salt 0.22; 2G uncapped high-salt 0.09.
position 452: 1G uncapped high-salt -0.03; 2G capped high-salt -0.15; 3G uncapped high-salt -0.02; 2G uncapped high-salt 0.05.
U341 (domain AUG): 1G uncapped high-salt 0.03; 2G capped high-salt -0.05; 3G uncapped high-salt 0.18; 2G uncapped high-salt 0.08.
C236: 1G uncapped high-salt 2.03; 2G capped high-salt 2.63; 3G uncapped high-salt 1.95; 2G uncapped high-salt 2.73.
position 490: 1G uncapped high-salt 0.07; 2G capped high-salt 0.07; 3G uncapped high-salt -0.03; 2G uncapped high-salt -0.01.

Values reported by Ye et al. 2022 (doi:10.1038/s41594-022-00746-2).